# In patent USRE49949E1, “Reducing risk of contracting clostridium-difficile associated disease” (The Board of Regents of the Nevada System of Higher …, priority 2012, dated 2024):
# Tested on: C. difficile spores
# Conditions: for triggering of spore germination in the absence of taurocholate: 12 mM, germination buffer, no taurocholate
compound,measurement,setting,value
"NCC(=O)O [Compound A01, Glycine]",triggering of spore germination in the absence of taurocholate,,do not trigger
"N[C@@H](Cc1ccccc1)C(=O)O [Compound A26, L-phenylalanine]",triggering of spore germination in the absence of taurocholate,,do not trigger
"C[C@H](CCC(=O)NCC(=O)O)[C@H]1CC[C@H]2[C@@H]3[C@H](O)C[C@@H]4C[C@H](O)CC[C@]4(C)[C@H]3C[C@H](O)[C@]12C [Compound T17, 3α,7α,12α-Trihydroxy-5β-cholan-24-oic acid N-(carboxymethyl)amide, reference compound]",drop of spore germination rate in BHIS media,BHIS media versus buffer,~10 fold
"C[C@H](CCC(=O)NCCS(=O)(=O)O)[C@H]1CC[C@H]2[C@@H]3[C@H](O)C[C@@H]4C[C@H](O)CC[C@]4(C)[C@H]3C[C@H](O)[C@]12C [Taurocholate, 2-[(3α,7α,12α-trihydroxy-24-oxo-5β-cholan-24-yl)amino]ethanesulfonic acid, reference compound]",effect of supplementing BHIS on spore germination,BHIS supplemented with taurocholate,augmented
"C[C@H](CCC(=O)O)[C@H]1CC[C@H]2[C@@H]3[C@H](O)C[C@@H]4C[C@H](O)CC[C@]4(C)[C@H]3CC[C@]12C [chenodeoxycholate, reference compound]",effect on taurocholate-enhanced spore germination in BHIS,BHIS with 12 mM taurocholate and 12 mM chenodeoxycholate,inhibited
